Measured values from several laboratories, pooled; numbers as filed in NIAID ChemDB.

All rows: tests in culture; species: Cryptococcus neoformans; read-out: MIC90

A number after MIC or MFC names an inhibition level or a share of isolates.

smiles | strain or isolate | read by | value
C[C@H]1[C@H](O)[C@@H](C)/C=C/C=C/C=C/C=C/C=C/C=C/C=C/[C@H](O[C@@H]2O[C@H](C)[C@@H](O)[C@H](N)[C@@H]2O)C[C@@H]2O[C@](O)(C[C@@H](O)C[C@@H](O)CC[C@H](O)[C@@H](O)C[C@@H](O)CC(=O)O[C@H]1C)C[C@H](O)[C@H]2C(=O)O | 12 strains |  | 1 µg/mL
CCC(C)CC(C)CCCCCCCCC(=O)N[C@H]1C[C@@H](O)[C@H](NCCN)NC(=O)[C@@H]2[C@@H](O)CCN2C(=O)[C@H]([C@H](O)CCN)NC(=O)[C@H]([C@H](O)[C@@H](O)c2ccc(O)cc2)NC(=O)[C@@H]2C[C@@H](O)CN2C(=O)[C@H]([C@@H](C)O)NC1=O | 15 strains |  | >8 µg/mL
CCN1CCC(O)(/C=C/c2ccc(Cl)cc2)C(C(=O)/C=C/c2ccc(Cl)cc2)C1 | 15 strains |  | 1 µg/mL
CC[C@@H]([C@H](C)O)n1ncn(-c2ccc(N3CCN(c4ccc(OC[C@@H]5CO[C@@](Cn6cncn6)(c6ccc(F)cc6F)C5)cc4)CC3)cc2)c1=O | 10 strains |  | 0.25 µg/mL
CC(N1CCN(c2ccc(-n3cnn(Cc4ccc(C(F)(F)F)cc4)c3=O)cc2F)CC1)C(O)(Cn1cncn1)c1ccc(F)cc1F | 8 strains |  | 0.19 µg/mL
C[C@H]1[C@H](O)[C@@H](C)/C=C/C=C/C=C/C=C/C=C/C=C/C=C/[C@H](O[C@@H]2O[C@H](C)[C@@H](O)[C@H](N)[C@@H]2O)C[C@@H]2O[C@](O)(C[C@@H](O)C[C@@H](O)CC[C@H](O)[C@@H](O)C[C@@H](O)CC(=O)O[C@H]1C)C[C@H](O)[C@H]2C(=O)O | 32 isolates |  | 0.25 µg/mL
C[C@@H](SC1COC(/C=C/C=C/c2ccc(C#N)cc2F)OC1)[C@](O)(Cn1cncn1)c1ccc(F)cc1F | 25 isolates |  | 0.004 µg/mL
Nc1[nH]c(=O)ncc1F | 42 isolates (HIV+) |  | 4 µg/mL
C[C@H]1[C@H](O)[C@@H](C)/C=C/C=C/C=C/C=C/C=C/C=C/C=C/[C@H](O[C@@H]2O[C@H](C)[C@@H](O)[C@H](N)[C@@H]2O)C[C@@H]2O[C@](O)(C[C@@H](O)C[C@@H](O)CC[C@H](O)[C@@H](O)C[C@@H](O)CC(=O)O[C@H]1C)C[C@H](O)[C@H]2C(=O)O | 19 strains |  | 0.5 µg/mL
CCC(C)n1ncn(-c2ccc(N3CCN(c4ccc(OC[C@H]5CO[C@](Cn6cncn6)(c6ccc(Cl)cc6Cl)O5)cc4)CC3)cc2)c1=O |  |  | 0.11 µg/mL
CN[C@H]1CC[C@@H](c2ccc(Cl)c(Cl)c2)c2ccccc21 | A2-102-5 | broth dilution | 5 µg/mL
Nc1[nH]c(=O)ncc1F | 15 isolates |  | 8 µg/mL
CCCCCCCCOc1ccc(C(=O)NC2C[C@@H](O)[C@@H](O)NC(=O)C3[C@@H](O)[C@@H](C)CN3C(=O)C(C(C)O)NC(=O)C([C@H](O)[C@@H](O)c3ccc(O)cc3)NC(=O)C3C[C@@H](O)CN3C(=O)C(C(C)O)NC2=O)cc1 | 12 strains |  | >40 µg/mL
Nc1[nH]c(=O)ncc1F | 37 strains |  | ≥32 µg/mL
C[C@H]1[C@H](O)[C@@H](C)/C=C/C=C/C=C/C=C/C=C/C=C/C=C/[C@H](O[C@@H]2O[C@H](C)[C@@H](O)[C@H](N)[C@@H]2O)C[C@@H]2O[C@](O)(C[C@@H](O)C[C@@H](O)CC[C@H](O)[C@@H](O)C[C@@H](O)CC(=O)O[C@H]1C)C[C@H](O)[C@H]2C(=O)O | 32 isolates |  | 0.25 µg/mL
CCCCCCCCCCCCCCCCOP(=O)([O-])OCC[N+](C)(C)C |  |  | 2 µg/mL
CC(N1CCN(c2ccc(-n3cnnn3)cc2)C1=O)[C@](O)(Cn1cncn1)c1ccc(F)cc1F | 14 strains |  | 0.25 µg/mL
CCCCCOc1ccc(-c2ccc(-c3ccc(C(=O)N[C@H]4C[C@@H](O)[C@@H](O)NC(=O)[C@@H]5[C@@H](O)[C@@H](C)CN5C(=O)[C@H]([C@H](C)O)NC(=O)[C@H]([C@H](O)[C@@H](O)c5ccc(O)cc5)NC(=O)[C@@H]5C[C@@H](O)CN5C(=O)[C@H]([C@H](C)O)NC4=O)cc3)cc2)cc1 | 15 isolates |  | >10.24 µg/mL
C[C@H]1[C@H](O)[C@@H](C)/C=C/C=C/C=C/C=C/C=C/C=C/C=C/[C@H](O[C@@H]2O[C@H](C)[C@@H](O)[C@H](N)[C@@H]2O)C[C@@H]2O[C@](O)(C[C@@H](O)C[C@@H](O)CC[C@H](O)[C@@H](O)C[C@@H](O)CC(=O)O[C@H]1C)C[C@H](O)[C@H]2C(=O)O | 5 isolates |  | 0.5 µg/mL
CC(N1CCN(c2ccc(-n3cnn(Cc4ccc(C(F)(F)F)cc4)c3=O)cc2)CC1)C(O)(Cn1cncn1)c1ccc(F)cc1F | 8 strains |  | 0.19 µg/mL
CCCCCCCCOc1ccc(-c2ccc(C(=O)NC3CC(NCCN)CNC(=O)[C@@H]4[C@@H](O)[C@@H](C)CN4C(=O)[C@@H](CO)NC(=O)[C@H]([C@H](O)Cc4ccccc4)NC(=O)[C@@H]4C[C@@H](O)CN4C(=O)[C@H]([C@@H](C)O)NC3=O)cc2)cc1 | 30 isolates |  | 8.8 µg/mL
N=C(N)c1ccc(OCCCC2CCN(CCCOc3ccc(C(=N)N)cc3)CC2)cc1 | 33 clinical isolates |  | 0.0625 µg/mL
CCC(C)CC(C)CCCCCCCCC(=O)N[C@H]1C[C@@H](O)[C@H](NCCN)NC(=O)[C@@H]2[C@@H](O)CCN2C(=O)[C@H]([C@H](O)CCN)NC(=O)[C@H]([C@H](O)[C@@H](O)c2ccc(O)cc2)NC(=O)[C@@H]2C[C@@H](O)CN2C(=O)[C@H]([C@@H](C)O)NC1=O | 19 isolates |  | 32 µg/mL
C[C@@H](c1nc(-c2ccc(C#N)cc2)cs1)[C@](O)(Cn1cnnc1)c1ccc(F)cc1F | 541 isolates |  | 0.25 µg/mL
CCC(C)n1ncn(-c2ccc(N3CCN(c4ccc(OC[C@H]5CO[C@](Cn6cncn6)(c6ccc(Cl)cc6Cl)O5)cc4)CC3)cc2)c1=O | 15 strains |  | 0.06 µg/mL
CCS(=O)(=O)C(F)(F)C(O)(Cn1cncn1)c1ccc(F)cc1F | 26 strains |  | 2 µg/mL
C=C1CO[C@H]2[C@@H](C)OC(OC[C@@]34C[C@H]5[C@H](C)CC[C@@H]5[C@@]5(C=O)C[C@@H]3C=C(C(C)C)[C@@]45C(=O)O)C[C@@H]12 | 137 strains (serotype A) |  | 1 µg/mL
C[C@@H](SC1COC(/C=C/C=C/c2ccc(C#N)cc2F)OC1)[C@](O)(Cn1cncn1)c1ccc(F)cc1F |  |  | 0.008 µg/mL

The last 3 rows once more:

smiles	strain or isolate	read by	value
CCS(=O)(=O)C(F)(F)C(O)(Cn1cncn1)c1ccc(F)cc1F	26 strains		2 µg/mL
C=C1CO[C@H]2[C@@H](C)OC(OC[C@@]34C[C@H]5[C@H](C)CC[C@@H]5[C@@]5(C=O)C[C@@H]3C=C(C(C)C)[C@@]45C(=O)O)C[C@@H]12	137 strains (serotype A)		1 µg/mL
C[C@@H](SC1COC(/C=C/C=C/c2ccc(C#N)cc2F)OC1)[C@](O)(Cn1cncn1)c1ccc(F)cc1F			0.008 µg/mL

Blank or dashed fields: not listed here. Rows are shuffled and stem from different studies.